The values below come from paper PMC8699537, “In Vitro Anti-SARS-CoV-2 Activity of Selected Metal Compounds and Potential Molecular Basis for Their Actions Based on Computational Study” (Biomolecules, 2021).

The index is printed as in the source, without its formula.

The test system of the data set is SARS-CoV-2. Format: cell-based.

Turning to `[Cl-].[Cl-].[Cl-].[Cl-].[Ru+3].c1ccc2[nH][nH+]cc2c1.c1ccc2[nH]ncc2c1.c1ccc2[nH]ncc2c1` [KP1019], the “Selectivity Index” value worked out at 6.8.

Turning to `[Cl][Sb]([Cl])[Cl]` [SbCl3, antimony trichloride], the “Selectivity Index” value came out at 6.4.
